Amino acid sequences for entries named in this document (tags omitted). A change or cut given only in a name is not applied to a line headed by its entry.
UniProt Q9HUM0: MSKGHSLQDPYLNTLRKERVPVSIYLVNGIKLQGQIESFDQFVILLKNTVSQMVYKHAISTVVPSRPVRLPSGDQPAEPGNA

According to publication PMC4063720:

Molecular target: Hfq (Pseudomonas aeruginosa PAO1) (UniProt Q9HUM0)
Experiment: competition with a labelled probe
Settings: unlabelled amiE -134-+20 vs 10 nM labelled amiE -134-+20, 20-fold Hfq-hexamer; EMSA: 10 mM Tris-HCl pH 8.0, 10 mM MgCl2, 60 mM NaCl, 10 mM NaH2PO4, 10 mM DTT, 25 ng tRNA in 10 ul, 37 C 30 min; 4% PAGE in Tris-borate; recombinant protein; residues 1-82; label: 5'-32P (EMSA); probe letters rebuilt from the primers and the genome

GAUCAGGUCGUGCGCAUCAGCGUCGAUGUCGCGGGACCGAACCUAACGCAUACGUACAGAGCAAAUGGGCUCUCCCGGGGUUACCCGGGAGGGCCUUUUUUCGUCCCGAAAAAAUAACAACAAGAGGUGAUAUCCAUGCGUCACGGCGAUAUUUCCUGCAGAAAAAA [amiE -134-+20 RNA]
binding result: binds

For at least one entry, the source does not settle the construct or the ends of the probe. At least one verdict rests on a figure or table, not on a statement of the authors.
